The IC50 is the midpoint of a concentration-inhibition curve.

In the test the target is Human immunodeficiency virus type 1 reverse transcriptase (Human immunodeficiency virus 1, UniProt Q72547, K103N). As to the kind of experiment: Inhibition of HIV-1 BH10 recombinant reverse transcriptase K103N mutant expressed in Escherichia coli assessed as incorporation of [32P]GTP into poly(rA)/oligo(dT) as template primer. Also on record: species or system Human immunodeficiency virus type 1 BH10.

For `Cc1cc(C#N)cc(C)c1Oc1nc(Nc2ccc(C#N)cc2)nc(N)c1Br` [ETRAVIRINE], the IC50 was 18 nM.

(Values after ChEMBL document CHEMBL3808355, “Systematic evaluation of methyl ester bioisosteres in the context of developing alkenyldiarylmethanes (ADAMs) as non-nucleoside reverse transcriptase inhibitors (NNRTIs) for anti-HIV-1 chemotherapy” (Bioorg Med Chem, 2016).)
